Test results taken from patent US8003632B2, “Cholinesterase inhibitors for treating inflammation” (priority 2004, dated 2011).

Test system: murine model of lethal endotoxemia
Assay: Survival in murine model of lethal endotoxemia
Format: in vivo, mice
Details: 14 days after endotoxin; 0.4 mg/kg i.p. one hour before endotoxin; vehicle none survived

C/C=C1\[C@H]2C=C(C)C[C@]1(N)c1ccc(=O)[nH]c1C2
mice survived: about 75%
